A mixed list of measured activities; the numbers were collected in NIAID ChemDB.

Shared fields: growth or infection tests; species: Candida albicans; endpoint: MIC

Blank or dashed fields: not listed here.

SMILES | strain | read by | value
CC1ON=C([C@H]2O[C@@H]3OC(C)(C)O[C@@H]3[C@H]2OCc2ccccc2)C1C(=O)O |  |  | >50 µg/mL
Clc1ccc(/C(Cn2ccnc2)=N/OCc2ccccc2)c(Cl)c1 | CA12 |  | >128 µg/mL
CCCCCCCCCCCCN[C@H]1CCCNC(=O)[C@@H]2C[C@H](N)CN2C(=O)[C@H]([C@@H](C)O)NC(=O)[C@H](CCc2ccc(O)cc2)NC(=O)[C@@H]2C[C@@H](O)CN2C(=O)[C@H]([C@@H](C)O)NC1=O | ATCC 62376 |  | 0.78 µg/mL
CO[C@H]1C[C@@H]2CC[C@@H](C)[C@@](O)(O2)C(=O)C(=O)N2CCCC[C@H]2C(=O)O[C@H]([C@H](C)C[C@@H]2CC[C@@H](C(=O)ON3CCOCC3)[C@H](OC)C2)CC(=O)[C@H](C)/C=C(\C)[C@@H](O)[C@@H](OC)C(=O)[C@H](C)C[C@H](C)CCCC/C=C/1C | 442 |  | >100 µg/mL
COc1ccc(-c2ccc(C(=O)N[C@H]3CCCNC(=O)C4C[C@H](N)CN4C(=O)C(C(C)O)NC(=O)C(CCc4ccc(O)cc4)NC(=O)C4C[C@@H](O)CN4C(=O)C(C(C)O)NC3=O)cc2)cc1 | ATCC 62376 |  | 6.25 µg/mL
CCCCCCOC(=O)C(N)Cc1ccccc1 |  |  | 500 µg/mL
COc1cc(O)c2c(c1)C(=O)c1c(cc3c(c1O)-c1c(cc(C)c(C(=O)NC(C)C(=O)O)c1O)[C@H](OC1OC(C)C(N(C)C)C(OC4OCC(O)C(O)C4O)C1O)[C@H]3O)C2=O | ATCC 32354 (B311) |  | 6.3 µg/mL
Cc1c(Sc2ccccc2)[n+](=O)c2cc(Cl)ccc2n1[O-] | Clinical isolate 4 |  | 31.25 µg/mL
CO[C@@H]1C[C@H](C[C@@H](C)[C@@H]2CC(=O)[C@H](C)/C=C(\C)[C@@H](O)[C@@H](OC)C(=O)[C@H](C)C[C@H](C)/C=C/C=C/C=C(\C)[C@H](N(O)C(=O)N(C)C)C[C@@H]3CC[C@@H](C)[C@@](O)(O3)C(=O)C(=O)N3CCCC[C@H]3C(=O)O2)CC[C@H]1C(=O)ON(C)O | 38247 |  | 100 µg/mL
Fc1ccc(/C(Cn2ccnc2)=N/OCc2ccccc2)cc1 | Y0109 |  | 128 µg/mL
CCCCCOc1ccc(-c2ccc(-c3ccc(C(=O)N[C@H]4CCCNC(=O)[C@@H]5C[C@H](NC(=O)OC(C)(C)C)CN5C(=O)[C@H]([C@@H](C)O)NC(=O)[C@H](CCc5ccc(O)cc5)NC(=O)[C@@H]5C[C@@H](O)CN5C(=O)[C@H]([C@@H](C)O)NC4=O)cc3)cc2)cc1 | ATCC 62376 |  | 12.5 µg/mL
CO[C@H]1C[C@@H]2CC[C@@H](C)[C@@](O)(O2)C(=O)C(=O)N2CCCC[C@H]2C(=O)O[C@H]([C@H](C)C[C@@H]2CC[C@@H](C(=O)ON(C)OC)[C@H](OC)C2)CC(=O)[C@H](C)/C=C(\C)[C@@H](O)[C@@H](OC)C(=O)[C@H](C)C[C@H](C)CCCC/C=C/1C | 579A |  | >100 µg/mL
CCCCCOc1ccc(-c2ccc(-c3ccc(C(=O)N[C@H]4CCCNC(=O)[C@@H]5C[C@H](N)CN5C(=O)[C@H]([C@@H](C)O)NC(=O)[C@H](Cc5ccc(O)cc5)NC(=O)[C@@H]5C[C@@H](O)CN5C(=O)[C@H]([C@@H](C)O)NC4=O)cc3)cc2)cc1 | ATCC CCH442 |  | 0.2 µg/mL
CCCCCCOc1ccc(CC(N)C(=O)OCCCC)cc1 |  |  | 250 µg/mL
CN(N=C(N)c1cnccn1)S(=O)(=O)c1ccccc1 |  | broth dilution | >256 µg/mL
CCCCCOc1ccc(-c2ccc(-c3ccc(C(=O)N[C@H]4CCCNC(=O)[C@@H]5CCCN5C(=O)[C@H]([C@@H](C)O)NC(=O)[C@H](CCc5ccc(O)cc5)NC(=O)[C@@H]5C[C@@H](O)CN5C(=O)[C@H]([C@@H](C)O)NC4=O)cc3)cc2)cc1 | ATCC 38247 |  | 6.25 µg/mL
CCOC1CC([C@H]2O[C@@H]3OC(C)(C)O[C@@H]3[C@H]2OC)=NO1 |  |  | >50 µg/mL
CCCCCCCCOC(=O)C(N)Cc1ccc(OC)cc1 |  |  | 250 µg/mL
CN(CCCC#CC(C)(C)C)c1cccc2c1CCC(=O)N2 | Clinical isolate 18 |  | 7.8 µg/mL
Cc1ccc(C(=O)/C=C/c2cn(-c3ccccc3)nc2-c2ccc(Br)s2)cc1 |  |  | >200 µg/mL
C=C(C)CN1C[C@H](OC[C@@]23C[C@@H]4[C@H](C)CC[C@H]4[C@@]4(C=O)C[C@@H]2CC(C(C)C)[C@@]34C(=O)O)O[C@H](C)C1 | 4711E |  | ≤0.001 µg/mL
Clc1ccc(/C(Cn2ccnc2)=N\OCc2ccccc2)cc1 | Y0109 |  | 16 µg/mL
CCCCCOC(=O)C(N)Cc1cc(I)c(OC)c(I)c1 |  |  | 500 µg/mL
COc1ccc(CN2C[C@H](OC[C@@]34C[C@@H]5[C@H](C)CC[C@H]5[C@@]5(C=O)C[C@@H]3CC(C(C)C)[C@@]45C(=O)O)O[C@H](C)C2)cc1 | CL-245 (fluconazole-resistant) |  | ≤0.001 µg/mL
COc1cncc(-c2nc[n+](C)[nH]2)n1 |  | broth dilution | >256 µg/mL
CCCCCOc1ccc(-c2ccc(-c3ccc(C(=O)N[C@H]4CCCNC(=O)C5C[C@H](N)CN5C(=O)C(C(C)O)NC(=O)C(c5ccc(O)cc5)NC(=O)C5CC(O)CN5C(=O)C(C(C)O)NC4=O)cc3)cc2)cc1 | ATCC 62376 |  | 50 µg/mL
CCOc1cc2c(cc1F)n([O-])c(C)c(S(=O)(=O)c1ccccc1)[n+]2=O | Clinical isolate 16 |  | 15.6 µg/mL
CCCCCOc1ccc(-c2ccc(-c3ccc(C(=O)N[C@H]4CCCNC(=O)[C@@H]5C[C@H](NC(=O)OC)CN5C(=O)[C@H]([C@@H](C)O)NC(=O)[C@H](CCc5ccc(O)cc5)NC(=O)[C@@H]5C[C@@H](O)CN5C(=O)[C@H]([C@@H](C)O)NC4=O)cc3)cc2)cc1 | ATCC 62376 |  | 0.39 µg/mL
Cc1ccc(-c2cc(-c3cn(-c4ccccc4)nc3-c3ccc(Br)s3)n(-c3ccc(C)cc3)n2)cc1 |  |  | 50 µg/mL
COC(=O)C1CC([C@H]2O[C@@H]3OC(C)(C)O[C@@H]3[C@H]2OCc2ccccc2)=NO1 |  |  | >50 µg/mL
CCCCCCCCCOC(=O)C(N)Cc1ccc(OC)cc1 |  |  | 250 µg/mL
CCCCCOc1ccc(-c2ccc(-c3ccc(C(=O)N[C@H]4CCCNC(=O)[C@@H]5C[C@H](N)CN5C(=O)[C@H](Cc5ccc(O)cc5)NC(=O)C(CCc5ccc(O)cc5)NC(=O)[C@@H]5C[C@@H](O)CN5C(=O)[C@H]([C@@H](C)O)NC4=O)cc3)cc2)cc1 | ATCC 62376 |  | 1.56 µg/mL
Cc1ccc(C2=NN(C=O)C(c3cn(-c4ccccc4)nc3-c3ccc(Br)s3)C2)cc1 |  |  | >200 µg/mL
CC(C)C1C[C@H]2C[C@]3(C=O)[C@@H]4CC[C@@H](C)[C@H]4C[C@@]2(CO[C@H]2CN(C4CC4)C[C@@H](C)O2)[C@]13C(=O)O | 4711E |  | 0.002 µg/mL
CCCCCCCOc1ccc(N2CCN(c3ccc(C(=O)N[C@H]4CCCNC(=O)[C@@H]5C[C@H](N)CN5C(=O)[C@H]([C@@H](C)O)NC(=O)[C@H](Cc5ccc(CO)cc5)NC(=O)[C@@H]5CCCN5C(=O)[C@H](C(C)O)NC4=O)cc3)CC2)cc1 | ATCC 38247 |  | 12.5 µg/mL
CO[C@@H]1C[C@H](C[C@@H](C)[C@@H]2CC(=O)[C@H](C)/C=C(\C)[C@@H](O)[C@@H](OC)C(=O)[C@H](C)C[C@H](C)/C=C/C=C/C=C(\C)[C@H](N(O)C(N)=O)C[C@@H]3CC[C@@H](C)[C@@](O)(O3)C(=O)C(=O)N3CCCC[C@H]3C(=O)O2)CC[C@H]1C(=O)ON(C)O | 38247 |  | 100 µg/mL
COc1ccc(N2CCN(c3ccc(C(=O)N[C@H]4CCCNC(=O)C5C[C@H](N)CN5C(=O)C(C(C)O)NC(=O)C(CCc5ccc(O)cc5)NC(=O)C5C[C@@H](O)CN5C(=O)C(C(C)O)NC4=O)cc3)CC2)cc1 | ATCC CCH442 |  | 3.12 µg/mL
CCCCCCCCOc1ccc(N2CCN(c3ccc(C(=O)N[C@H]4CCCNC(=O)[C@@H]5C[C@H](N)CN5C(=O)[C@H](CCN)NC(=O)[C@H](CCc5ccc(O)cc5)NC(=O)[C@@H]5CCCN5C(=O)[C@H]([C@@H](C)O)NC4=O)cc3)CC2)cc1 | ATCC 62376 |  | 0.2 µg/mL
CCOC(=O)C1CC([C@H]2O[C@@H]3OC(C)(C)O[C@@H]3[C@H]2OCc2ccccc2)=NO1 |  |  | >50 µg/mL
CC(C)N=C(N)c1ccc2nc(-c3ccc4c(c3)Cc3cc(-c5nc6ccc(C(N)=NC(C)C)cc6[nH]5)ccc3-4)[nH]c2c1 | Isolate 1 (strain 2-76) |  | 1.56 µg/mL
CCCCCOc1ccc(-c2ccc(-c3ccc(C(=O)N[C@H]4CCCNC(=O)[C@@H]5C[C@H](N)CN5C(=O)[C@H](CCC(=O)O)NC(=O)C(CCc5ccc(O)cc5)NC(=O)[C@@H]5C[C@@H](O)CN5C(=O)[C@H]([C@@H](C)O)NC4=O)cc3)cc2)cc1 | ATCC 10231 |  | 0.39 µg/mL
CCCCOC(=O)C(N)Cc1cc(I)c(OC)c(I)c1 |  |  | 500 µg/mL
O=S1c2ccccc2SN1C1CC1 | CCH442 |  | 50 µg/mL
Cc1ccc(S(=O)(=O)NN=C(N)c2cnccn2)cc1 |  | broth dilution | >256 µg/mL
CCCCCOc1ccc(-c2ccc(-c3ccc(C(=O)N[C@H]4CCCNC(=O)C5C[C@H](N)CN5C(=O)C(C(C)O)NC(=O)C(OCc5ccccc5)NC(=O)C5CC(O)CN5C(=O)C(C(C)O)NC4=O)cc3)cc2)cc1 | ATCC 62376 |  | 1.56 µg/mL
CCOc1cc2c(cc1F)n([O-])c(C)c(Cl)[n+]2=O | Clinical isolate 8 |  | 15.6 µg/mL
COc1cncc(-c2nc[n+](-c3ccccc3)[nH]2)n1 |  | broth dilution | >256 µg/mL

Repeating the first 6 entries:

SMILES | strain | read by | value
CC1ON=C([C@H]2O[C@@H]3OC(C)(C)O[C@@H]3[C@H]2OCc2ccccc2)C1C(=O)O |  |  | >50 µg/mL
Clc1ccc(/C(Cn2ccnc2)=N/OCc2ccccc2)c(Cl)c1 | CA12 |  | >128 µg/mL
CCCCCCCCCCCCN[C@H]1CCCNC(=O)[C@@H]2C[C@H](N)CN2C(=O)[C@H]([C@@H](C)O)NC(=O)[C@H](CCc2ccc(O)cc2)NC(=O)[C@@H]2C[C@@H](O)CN2C(=O)[C@H]([C@@H](C)O)NC1=O | ATCC 62376 |  | 0.78 µg/mL
CO[C@H]1C[C@@H]2CC[C@@H](C)[C@@](O)(O2)C(=O)C(=O)N2CCCC[C@H]2C(=O)O[C@H]([C@H](C)C[C@@H]2CC[C@@H](C(=O)ON3CCOCC3)[C@H](OC)C2)CC(=O)[C@H](C)/C=C(\C)[C@@H](O)[C@@H](OC)C(=O)[C@H](C)C[C@H](C)CCCC/C=C/1C | 442 |  | >100 µg/mL
COc1ccc(-c2ccc(C(=O)N[C@H]3CCCNC(=O)C4C[C@H](N)CN4C(=O)C(C(C)O)NC(=O)C(CCc4ccc(O)cc4)NC(=O)C4C[C@@H](O)CN4C(=O)C(C(C)O)NC3=O)cc2)cc1 | ATCC 62376 |  | 6.25 µg/mL
CCCCCCOC(=O)C(N)Cc1ccccc1 |  |  | 500 µg/mL

Conditions beyond the fields shown may differ between rows.